A mixed list of measured activities; the numbers were collected in NIAID ChemDB.

All rows: growth or infection tests; species: Candida krusei; endpoint: MIC

An empty or dashed field is not shown.

CC1C(=O)N(c2ccccc2)C(=O)C1C ; strain: CCC 117-2000 ; read by: broth dilution / turbidity ; result: 62.5 µg/mL
Cc1nc2c(s1)C(=O)C(Nc1ccc(Br)cc1)=C(Cl)C2=O ; strain: KCCM 11655 ; read by: broth dilution ; result: 12.5 µg/mL
CCCCCCCCCCCCCCC1=NCCCC1 ; strain: ATCC 6258 ; result: 20 µg/mL
OC(Cn1cncn1)(Cn1cncn1)c1ccc(F)cc1F ; strain: KCCM 11655 ; read by: broth dilution ; result: 3.2 µg/mL
CC(C)=CCC/C(C)=C/CN=C(N)NC/C=C(\C)CCC=C(C)C ; strain: ATCC 6258 ; result: 62.5 µg/mL
COc1ccc(N2C(=O)CC(C)C2=O)cc1 ; strain: CCC 117-2000 ; read by: broth dilution / turbidity ; result: 125 µg/mL
CN(Cc1ccc(NS(=O)(=O)c2ccccc2)cc1)CC(O)(Cn1cncn1)c1ccc(F)cc1F ; strain: 506 ; read by: resazurin ; result: 10.6 µg/mL
Cc1ccc(N2C(=O)CC(C)C2=O)cc1 ; strain: CCC 117-2000 ; read by: broth dilution / turbidity ; result: 125 µg/mL
CC(C)NS(=O)(=O)c1ccc(CN(C)CC(O)(Cn2cncn2)c2ccc(F)cc2F)cc1 ; strain: 8 ; read by: resazurin ; result: 1.8 µg/mL
CC(C)=CCC/C(C)=C/CN(C)C(=N)N(C)C/C=C(\C)CCC=C(C)C ; strain: ATCC 6258 ; result: 62.5 µg/mL
CC(C)c1ccc(NS(=O)(=O)c2ccc(CN(C)CC(O)(Cn3cncn3)c3ccc(F)cc3F)cc2)cc1 ; strain: 506 ; read by: resazurin ; result: 1.8 µg/mL
Nc1scc2c1c(=O)oc1ccccc12 ; strain: ATCC 6258 ; read by: broth dilution ; result: 128 µg/mL
CCOC(=O)c1c(N)oc2cc(Cl)c(O)cc12 ; strain: KCCM 11655 ; read by: broth dilution ; result: 3.2 µg/mL
CC(C)CC1NC(=O)CC(CCCCCCCCC(C)O)OC(=O)C(CC(C)C)NC(=O)C(CC(C)C)NC(=O)C(CC(C)C)NC(=O)C(C(C)C)NC(=O)C(CC(=O)O)NC(=O)C(CC(C)C)NC1=O ; strain: Clinical isolate ; read by: absorbance ; result: 2 µg/mL
COC(=O)c1c(N)oc2c(C)c(C)c(O)cc12 ; strain: KCCM 11655 ; read by: broth dilution ; result: 3.2 µg/mL
CCCC[C@@H](C)/C=C(C)/C=C(\C)C(=O)N/C(=C/[C@@](C)(O)/C=C/C=C/C=C/C(=O)NC1=C(O)CCC1=O)C(=O)[C@@H]1CO1 ; strain: 2 ; read by: broth dilution ; result: 25 µM
O=C(/C=C/c1cc(Cl)ccc1Cl)c1c[nH]c2ccccc12 ; strain: NRRL Y-7179 ; read by: broth dilution ; result: 200 µg/mL
CC1=C2C[C@@H]3[C@](C)(CCC[C@@]3(C)O)C[C@]2(O)OC1=O ; strain: ATCC 6258 ; read by: broth dilution ; result: >256 µg/mL
CC(C)C(NC(=O)C(N)Cc1ccccc1)C(=O)NC(CCCN=C(N)N)C(=O)O ; strain: ATCC 6258 ; read by: broth dilution ; result: 171 µg/mL
COc1cc(NC(C)CCCNC(=O)CC(NC(=O)[C@H](N)CCCN)C(=O)O)c2nc(C(C)(C)C)ccc2c1 ; read by: broth dilution ; result: >20 µg/mL
Cc1coc2c1C(=O)[C@@H]1[C@@](C)(C2)[C@H](O)CC[C@@]1(C)O ; strain: ATCC 6258 ; read by: broth dilution ; result: >256 µg/mL
CCCNS(=O)(=O)c1ccc(CN(C)CC(O)(Cn2cncn2)c2ccc(F)cc2F)cc1 ; strain: 8 ; read by: resazurin ; result: 1.8 µg/mL
COC(=O)c1cc(O)c(O)c2oc3cc(OC)cc(O)c3c(=O)c12 ; strain: ATCC 6258 ; read by: broth dilution ; result: 15.7 µg/mL
Cc1ccc(N2N=C(c3c[nH]c4ccccc34)CC2c2ccc(Cl)c(Cl)c2)cc1 ; strain: NRRL Y-7179 ; read by: broth dilution ; result: 50 µg/mL
Cc1nc2c(s1)C(=O)C(Nc1ccc(Cl)cc1)=C(Cl)C2=O ; strain: KCCM 11655 ; read by: broth dilution ; result: 50 µg/mL
CC(C)(O)c1cn(-c2ccc(Cl)cc2)nn1 ; strain: URM 934 ; read by: broth dilution ; result: 256 µg/mL
CC1=C2C3=C4[C@](C)([C@@H]5C[C@@H]5[C@@]4(O)C[C@@H]4[C@]35OC(=O)C3=C5C[C@H]5[C@](O)(COC(=O)/C(C)=C/COC(=O)CCC(=O)OC3)[C@H]3C[C@H]3[C@]45C)[C@@H](O)[C@]2(O)OC1=O ; strain: ATCC 6258 ; read by: broth dilution ; result: >256 µg/mL
O=C(CCn1ccnc1)c1cccc(C(O)c2ccc(Br)cc2)c1 ; strain: RTCC 1001 ; read by: broth dilution ; result: >64 µg/mL
Clc1ccccc1C(c1ccccc1)(c1ccccc1)n1ccnc1 ; strain: Clinical isolates ; setting: 18 h ; result: 4 µg/mL
COC(=O)c1c(N)oc2c1cc(O)c1sc(C)nc12 ; strain: KCCM 11655 ; read by: broth dilution ; result: 25 µg/mL
O=C(/C=C/c1cccc(Cl)c1Cl)c1c[nH]c2ccccc12 ; strain: NRRL Y-7179 ; read by: broth dilution ; result: 200 µg/mL
C[C@H]1[C@H](O)[C@@H](C)/C=C/C=C/C=C/C=C/C=C/C=C/C=C/[C@H](O[C@@H]2O[C@H](C)[C@@H](O)[C@H](N)[C@@H]2O)C[C@@H]2O[C@](O)(C[C@@H](O)C[C@@H](O)CC[C@H](O)[C@@H](O)C[C@@H](O)CC(=O)O[C@H]1C)C[C@H](O)[C@H]2C(=O)O ; strain: NBRC 1395 ; read by: broth dilution ; setting: 24 h ; result: 0.5 µg/mL
CC1CC(=O)N(CCCCc2ccccc2)C1=O ; strain: CCC 117-2000 ; read by: broth dilution / turbidity ; result: 125 µg/mL
O=C(CCn1ccnc1)c1cccc(C(O)c2ccc(Cl)c(Cl)c2)c1 ; strain: RTCC 1001 ; read by: broth dilution ; result: 64 µg/mL
CCc1c(OC)ccc2sc(C)nc12 ; strain: KCCM 11655 ; read by: broth dilution ; result: 100 µg/mL
O=C(CCn1ccnc1)c1ccc(-c2ccccc2)cc1 ; strain: RTCC 1001 ; read by: broth dilution ; result: 8 µg/mL
Cc1nc2c(s1)C(=O)C(Nc1ccccc1)=C(Cl)C2=O ; strain: KCCM 11655 ; read by: broth dilution ; result: 6.3 µg/mL
O=C(CCn1ccnc1)c1cccc2ccccc12 ; strain: RTCC 1001 ; read by: broth dilution ; result: >64 µg/mL
Cc1ccc(N2N=C(c3c[nH]c4ccccc34)CC2c2cc(Cl)ccc2Cl)cc1 ; strain: NRRL Y-7179 ; read by: broth dilution ; result: 50 µg/mL
Cc1nc2c(s1)C(=O)C(Nc1ccc(C)c(C)c1)=C(Cl)C2=O ; strain: KCCM 11655 ; read by: broth dilution ; result: 6.3 µg/mL
OC(CCn1ccnc1)c1cccc(C(O)c2ccc(Br)cc2)c1 ; strain: RTCC 1090 ; read by: broth dilution ; result: >64 µg/mL
Cc1nc2c(s1)C(=O)C(Nc1ccc(F)cc1)=C(Cl)C2=O ; strain: KCCM 11655 ; read by: broth dilution ; result: 3.2 µg/mL
CN(Cc1ccc(S(=O)(=O)Nc2ccccc2)cc1)CC(O)(Cn1cncn1)c1ccc(F)cc1F ; strain: 8 ; read by: resazurin ; result: 1.8 µg/mL

Again, the opening 6 rows:

structure,strain,read by,setting,result
CC1C(=O)N(c2ccccc2)C(=O)C1C,CCC 117-2000,broth dilution / turbidity,-,62.5 µg/mL
Cc1nc2c(s1)C(=O)C(Nc1ccc(Br)cc1)=C(Cl)C2=O,KCCM 11655,broth dilution,-,12.5 µg/mL
CCCCCCCCCCCCCCC1=NCCCC1,ATCC 6258,-,-,20 µg/mL
OC(Cn1cncn1)(Cn1cncn1)c1ccc(F)cc1F,KCCM 11655,broth dilution,-,3.2 µg/mL
CC(C)=CCC/C(C)=C/CN=C(N)NC/C=C(\C)CCC=C(C)C,ATCC 6258,-,-,62.5 µg/mL
COc1ccc(N2C(=O)CC(C)C2=O)cc1,CCC 117-2000,broth dilution / turbidity,-,125 µg/mL

Neighbouring rows are from separate reports.